Test system: A/H1N1 WT virus
Assay: Successive cell passages of A/H1N1 WT virus in MDCK cells under antiviral selection pressure
Conditions: diltiazem 25 μM over 10 passages; baloxavir arm and combination arm until the 6th cell passage

O=C1c2c(O)c(=O)ccn2N([C@@H]2c3ccccc3SCc3c2ccc(F)c3F)[C@@H]2COCCN12 [baloxavir, baloxavir acid]
limiting dilution used for each cell passage (significant cytopathic effects observed): 10^−5
